Literature values as cited in publication PMC8611036, “An integrated method for optimized identification of effective natural inhibitors against SARS-CoV-2 3CLpro” (Scientific Reports, 2021).
Where two headings read alike, the source gives them in different places.

Test system: SARS-CoV 3CLpro
Details: cited from earlier work
[1] = SARS-CoV 3CLpro inhibitors (training set), from literature IC50, ref: per compound
[2] = SARS-CoV 3CLpro inhibitors (training set), literature values, ref: per compound

| Compound | IC50 | pIC50 | pIC50 [1] | IC50 [2] |
| --- | --- | --- | --- | --- |
| COC(=O)[C@]1(C)CC[C@]2(C)CC[C@]3(C)C4=CC=C5C(=CC(=O)C(O)=C5C)[C@]4(C)CC[C@@]3(C)[C@@H]2C1 [CMP128] | 5.5 µM | 5.26 | – | – |
| COc1cc(/C=C/C(=O)/C=C(O)/C=C/c2ccc(O)c(OC)c2)ccc1O [CMP156] | – | – | 4.629 | 23.5 µM |
| CC(C)(C)NC(=O)C(c1cccnc1)N(C(=O)c1cnco1)c1ccc(C(C)(C)C)cc1 (centres unmarked) [CMP188] | – | – | 4.409 | 39 µM |
| CCN(CC)c1ccc(C(=O)On2nnc3ccccc32)cc1 [CMP164] | – | – | 4.955 | 11.1 µM |
| Cc1coc2c1C(=O)C(=O)c1c-2ccc2c(C)cccc12 [CMP127] | – | – | 4.412 | 38.7 µM |
| COc1ccc(-c2cc(=O)c3c(O)cc(O)cc3o2)cc1-c1c(O)cc(O)c2c(=O)cc(-c3ccc(O)cc3)oc12 [CMP157] | – | – | 4.141 | 72.3 µM |
| O=C1NN(c2ccc(Cl)c(Cl)c2)C(=O)/C1=C\c1ccc(-c2ccc(Br)cc2C(=O)O)o1 [CMP104] | – | – | 5.037 | 9.19 µM |
| CC(C)c1cc2c(cc1O)[C@@]1(C)CC[C@H](O)C(C)(C)[C@@H]1CC2 [CMP163] | – | – | 3.632 | 233 µM |
| COc1ccc2c(c1)CCC1C2=NN(C(C)=O)C1c1cccc(I)c1 (centres unmarked) [CMP116] | – | – | 5.009 | 9.8 µM |
| C=C(CCSc1ccccc1NC(=O)/C=C/c1ccccc1)OC [CMP107] | – | – | 4.87 | 13.5 µM |
